Compound potency records, mixed from different reports. Data source: NIAID ChemDB in PubChem.

Common to all: tests in culture; species: Hepatitis C virus; read-out: EC50

a–b is a range or a potency band. Lines come from different laboratories, so protocols vary. Blank or dashed fields: not listed here. ECn: concentration that inhibits the pathogen or its effect by n%.

SMILES | strain | method | result
CC1CCC(C(=O)N(c2cc(-c3ccc(-c4cc5ncccn5n4)cc3)sc2C(=O)O)C2CCOCC2)CC1 | 1b | replicon / ELISA | 0.001–0.0049 µM
CN1CCN(c2cc3c(cc2F)c(=O)c(-c2noc(Cc4ccc(F)cc4)n2)cn3Cc2ccc(Cl)nc2)CC1 | 1b | replicon | <10 µM
Nc1cc(-c2ccc3nc(NCc4ccc(S(N)(=O)=O)cc4)nc(NCC(F)(F)F)c3n2)ccn1 |  | replicon | <0.1 µM
Cc1cc(C)n2nc(CC3=C(O)CC(CCc4ccc(C(C)(C)C#N)c(F)c4)(C4CCCC4)OC3=O)nc2n1 | M423T | replicon | 81 µM
COCC(C)N(C(=O)C1CCC(C)CC1)c1cc(-c2ccc(NC(=O)c3cscn3)cc2)sc1C(=O)O | 1b | replicon | <0.5 µM
CC(C)N(C(=O)c1ccc(C(F)(F)F)cc1F)c1cc(-c2ccc(-c3cc4ncccn4n3)cc2)sc1C(=O)O | 1a | luciferase / replicon | 0.1–0.5 µM
CC1CCC(C(=O)N(c2cc(-c3ccc(NC(=O)c4ccccn4)s3)sc2C(=O)O)C(C)C)CC1 | 1b | replicon | <0.5 µM
CC(C)N(C(=O)c1ccc(Cl)cc1Cl)c1cc(-c2ccc(-c3cn4ccccc4n3)cc2)sc1C(=O)O | 1a | replicon / ELISA | 0.05–0.1 µM
Fc1ccc(-c2ccc3nc(NCC(F)(F)F)nc(O[C@H]4CCOC4)c3n2)cc1 |  | replicon | <0.1 µM
O=c1c(-c2noc(Cc3ccccc3)n2)cn(Cc2ccc(C(F)(F)F)cc2F)c2ccccc12 | 1b | replicon | >10 µM
COC(=O)N[C@@H](C(=O)N1CCC[C@H]1c1ncc(-c2ccc(-c3ccc(-c4cnc([C@@H]5CCCN5C(=O)N5CCOCC5)[nH]4)cn3)cc2)[nH]1)c1ccccc1 | 1b |  | 0.00001–0.000999 µM
COCCN(C(=O)C1CCC(C)CC1)c1cc(-c2ccc(-c3cn4ccsc4n3)cc2)sc1C(=O)O | 1a | replicon / ELISA | 0.01–0.049 µM
Cc1cc(-c2cnc([C@@H]3CCCN3C(=O)[C@@H](c3ccccc3)N(C)C)[nH]2)ccc1-c1ccc(-c2cnc([C@@H]3CCCN3C(=O)[C@@H](c3ccccc3)N(C)C)[nH]2)cc1C | 1b |  | 0.00001–0.000999 µM
CC1CCC(C(=O)N(c2cc(-c3ccc(-c4cc5nccc(N)n5n4)cc3)sc2C(=O)O)C2CCOCC2)CC1 | 1b | replicon / ELISA | 0.001–0.0049 µM
CC(C)N(C(=O)c1ccc(Cl)cc1Cl)c1cc(-c2ccc(-c3cc4nccc(N)n4n3)cc2)sc1C(=O)O | 1a | luciferase / replicon | <0.005 µM
CC1CCC(C(=O)N(c2cc(-c3ccc(NC(=O)c4cscn4)cc3)sc2C(=O)[O-])C(C)C)CC1.NC(N)=[NH+]CCCC(N)C=O | 1a | replicon | <0.5 µM
CC(C)N(C(=O)c1ccc(Cl)cc1Cl)c1cc(-c2ccc(-c3cc4ncccc4o3)cc2)sc1C(=O)O | 1b | replicon / ELISA | 0.01–0.05 µM
CCN(CC)[C@@H](C(=O)N1CCC[C@@H]1c1ncc(-c2ccc(-c3ncc(-c4cnc([C@H]5CCCN5C(=O)[C@@H](NC(=O)OC)C(C)C)[nH]4)cn3)cc2)[nH]1)c1ccccc1 | 1b |  | 0.00001–0.000999 µM
Cc1cc(Br)ccc1C(=O)N(c1cc(-c2ccc(-c3cn4ccccc4n3)cc2)sc1C(=O)O)C(C)C | 1b | replicon / ELISA | 0.1–0.5 µM
COc1cc2c(=O)c(-c3noc(Cc4ccc(C)cc4)n3)cn(Cc3ccc(Cl)cc3)c2cc1OC | 1b | replicon | >10 µM
CC1CCC(C(=O)N(c2cc(-c3ccc(-c4cn5ccccc5n4)cc3)sc2C(=O)O)C2CCOCC2)CC1 | 1b | replicon / ELISA | 0.01–0.049 µM
COC(=O)N[C@H](C(=O)N1CCC[C@@H]1c1ncc(-c2ccc(-c3ccc(-c4cnc([C@@]5(C)CCCN5C(=O)[C@@H](Nc5noc(N)n5)C(C)C)[nH]4)cc3)cc2)[nH]1)C(C)C | 1b |  | 0.00001–0.000999 µM
COCC(C)N(C(=O)C1CCC(C(F)(F)F)CC1)c1cc(-c2ccc(NC(=O)c3cscn3)cc2)sc1C(=O)O | 1a | replicon | <0.5 µM
Fc1ccc(-c2ccc3nc(NCc4nnco4)nc(NCC(F)(F)F)c3n2)cc1 |  | replicon | <0.1 µM
COC(=O)N[C@@H](C(=O)N1CCC[C@@H]1C1=NCC(c2ccc(-c3ccc(-c4cnc([C@H]5CCCN5C(=O)[C@H](NC(=O)OC)c5ccccc5)[nH]4)cc3)c(CN(C)C)c2)=N1)c1ccccc1 | 1b |  | 0.00001–0.000999 µM
COCCN(C(=O)C1CCC(C)CC1)c1cc(-c2ccc(-c3cn4ccccc4n3)cc2)sc1C(=O)O | 1a | replicon / ELISA | 0.01–0.049 µM
CC(C)(c1ccccc1)c1nc(-c2cn(Cc3ccc(C(F)(F)F)cc3)c3cc(N4CCS(=O)CC4)c(F)cc3c2=O)no1 | 1b | replicon | <2 µM
COCCN(C(=O)C1CCC(C)CC1)c1cc(-c2ccc(-c3cc4ccccc4o3)cc2)sc1C(=O)O | 1b | replicon / ELISA | 0.001–0.0049 µM
C[C@H](NC(=O)[C@@H](c1ccccc1)N(C)C)c1ncc(-c2ccc(-c3ccc(-c4cnc([C@H]5CCCN5C(=O)[C@@H](c5ccccc5)N(C)C)[nH]4)nn3)cc2)[nH]1 | 1b |  | 0.001–0.099 µM
CC1CCC(C(=O)N(c2cc(-c3ccc(NC(=O)c4cnccn4)nc3)sc2C(=O)O)C(C)C)CC1 | 1b | replicon | <0.5 µM
O=C(O)c1sc(-c2ccc(-c3cn4ccccc4n3)cc2)cc1N(C(=O)C1CCC(C(F)(F)F)CC1)C1CCOCC1 | 1b | replicon / ELISA | 0.05–0.099 µM
CN1CCN(c2cc3c(cc2F)c(=O)c(-c2noc(C(C)(C)c4ccccc4)n2)cn3Cc2ccc(C(F)(F)F)cc2F)CC1 | 1b | replicon | <2 µM
COC(=O)N[C@@H](C(=O)N(C)[C@@H](C)c1ncc(-c2ccc(-c3ccc(-c4cnc([C@H]5CCCN5C(=O)[C@@H](c5ccccc5)N(C)C)[nH]4)cc3)cc2)[nH]1)c1ccccc1 | 1b |  | 0.00001–0.000999 µM
NC(=O)c1ccc(-c2ccc3nc(NCc4ccc(S(N)(=O)=O)cc4)nc(C4CC4)c3n2)cc1 |  | replicon | <0.1 µM
O=C(O)c1ccc2c(c1)c(=O)c(-c1noc(Cc3ccccc3)n1)cn2Cc1ccc(C(F)(F)F)cc1F | 1b | replicon | <2 µM
Fc1ccc(-c2ccc3nc(NCc4ccc(N5CCCC5)cc4)nc(NCC(F)(F)F)c3n2)cc1 |  | replicon | <0.1 µM
CN(C)[C@@H](C(=O)N1CCC[C@H]1c1ncc(-c2ccc(-c3ccc(-c4cnc([C@@H]5CCCN5C(=O)[C@@H](c5ccccc5)N(C)C)[nH]4)cc3C(F)(F)F)cc2)[nH]1)c1ccccc1 | 1b |  | 0.00001–0.000999 µM